Results of unrelated studies side by side (data: NIAID ChemDB).

Shared fields: whole-cell or culture tests; species: Rhinovirus; method: cytopathic effect; read-out: EC50

ECn: concentration that inhibits the pathogen or its effect by n%. Lines come from different laboratories, so protocols vary.

{"smiles": "Cc1cc(OCCCc2ccc(C(F)F)nn2)cc(C)c1-c1noc(C(F)F)n1", "strain": "serotypes 3 4 5 9 16 18 38 66 75 67", "cells": "HeLa", "result": "0.1 µg/mL"}
{"smiles": "CCCc1nc2ccc(OCCC3CCN(c4ccc(C)nn4)CC3)cc2o1", "strain": "Serotype 14", "cells": "MRC-5", "result": "0.028 µg/mL"}
{"smiles": "CS(=O)(=O)c1ccc(Cc2ccc(Br)cc2)nc1", "strain": "TYPE 1A", "cells": "HeLa", "result": "0.6 µg/mL"}
{"smiles": "Cc1cc(OCCCc2ccc(F)nn2)cc(C)c1-c1noc(C(F)(F)F)n1", "strain": "serotypes 3 4 5 9 16 18 38 66 75 67", "cells": "HeLa", "result": "0.08 µg/mL"}
{"smiles": "CCCOc1nc2ccc(OCCC3CCN(c4ccc(C)nn4)CC3)cc2o1", "strain": "Serotype 14", "cells": "MRC-5", "result": "0.056 µg/mL"}
{"smiles": "COCc1cc(CCCOc2c(Cl)cc(-c3noc(C)n3)cc2Cl)on1", "strain": "Serotype 25", "cells": "HeLa", "result": "0.022 µg/mL"}
{"smiles": "CSc1nsc(-c2ccc(OCc3ccccc3)cc2)c1C#N", "strain": "Serotype 45 (group A)", "cells": "HELA-OHIO", "result": ">50 µM"}
{"smiles": "CSc1nsc(-c2ccc(O)cc2)c1C#N", "strain": "Serotype 59 (group B)", "cells": "HELA-OHIO", "result": ">10 µM"}
{"smiles": "COC(=O)c1cc(CCCOc2c(C)cc(-c3noc(C)n3)cc2C)on1", "strain": "Serotype 1A", "cells": "HeLa", "result": "0.023 µg/mL"}
{"smiles": "CS(=O)(=O)c1ccc(Cc2ccc(Cl)c(Cl)c2)nc1", "strain": "TYPE 64", "cells": "HeLa", "result": "0.3 µg/mL"}
{"smiles": "CCOC(=O)c1ccc(OCCC2CCN(c3ccc(C)nn3)CC2)cc1", "strain": "Serotype 14", "cells": "WI-38", "result": "<0.1 µg/mL"}
{"smiles": "CSc1nsc(-c2ccc(OCCOc3ccc([N+](=O)[O-])cc3)cc2)c1C#N", "strain": "Serotype 45 (group A)", "cells": "HELA-OHIO", "result": ">2 µM"}
{"smiles": "Cc1c(-c2ccccc2)n(-c2cccc(F)c2)c2ccc(C(C)C)cc2c1=O", "strain": "61/6669-CV39", "cells": "HELA-OHIO", "result": "0.29 µg/mL"}
{"smiles": "Cc1ccc(N2CCC(CCOc3ccc4oc(C)nc4c3)CC2)nn1", "strain": "Serotype 2", "cells": "MRC-5", "result": ">0.5 µg/mL"}
{"smiles": "CCSc1ccc(Oc2ccc(C(=O)c3ccccc3)cc2)nc1C#N", "strain": "TYPE 2", "cells": "HeLa", "result": ">3.1 µg/mL"}
{"smiles": "CSc1nsc(-c2ccc(OCCc3ccccc3)cc2)c1C#N", "strain": "Serotype 14 (group A)", "cells": "HELA-OHIO", "result": ">20 µM"}
{"smiles": "CCOc1ncnc2cc(OCCC3CCN(c4ccc(C)nn4)CC3)ccc12", "strain": "Serotype 2", "cells": "MRC-5", "result": "0.027 µg/mL"}
{"smiles": "CSc1nsc(-c2ccc(OS(=O)(=O)c3ccc(C)cc3)cc2)c1C#N", "strain": "Serotype 51 (group B)", "cells": "HELA-OHIO", "result": ">25 µM"}
{"smiles": "Cc1nc(-c2cc(C)c(OCCCc3ccc(C=O)o3)c(C)c2)no1", "strain": "serotypes 3 4 5 9 16 18 38 66 75 67", "cells": "HeLa", "result": "0.446 µg/mL"}
{"smiles": "CSc1nsc(-c2ccc(OCc3ccccc3)cc2)c1C#N", "strain": "Serotype 42 (group A)", "cells": "HELA-OHIO", "result": "7 µM"}
{"smiles": "CS(=O)(=O)c1ccc(Cc2ccc(Sc3ccccc3)cc2)nc1", "strain": "TYPE 2", "cells": "HeLa", "result": "1.3 µg/mL"}
{"smiles": "CSc1nsc(-c2ccc(OCCCOc3ccccc3)cc2)c1C#N", "strain": "Serotype 86 (group A)", "cells": "HELA-OHIO", "result": "0.6 µM"}
{"smiles": "CCOc1cnnc2cc(OCCC3CCN(c4ccc(C)nn4)CC3)ccc12", "strain": "Serotype 14", "cells": "MRC-5", "result": "0.2 µg/mL"}
{"smiles": "CCOC(=O)c1ccc(OCCCOc2ccc(-c3snc(SC)c3C#N)cc2)cc1", "strain": "Serotype 45 (group A)", "cells": "HELA-OHIO", "result": ">2 µM"}
{"smiles": "C#CCOc1cc(OC)ccc1-c1cc(N(CC)CC)no1", "strain": "Serotype 29 (group B)", "cells": "HeLa", "result": ">40 µM"}
{"smiles": "CSc1nsc(-c2ccc(OCCCCOc3ccc([N+](=O)[O-])cc3)cc2)c1C#N", "strain": "Serotype 14 (group A)", "cells": "HELA-OHIO", "result": ">0.5 µM"}
{"smiles": "CS(=O)(=O)c1ccc(Oc2ccc(C(=O)c3ccccc3)cc2)nc1", "strain": "TYPE 74", "cells": "HeLa", "result": ">10 µg/mL"}
{"smiles": "CS(=O)c1ccc(Cc2ccc(S(C)(=O)=O)cn2)cc1", "strain": "TYPE 64", "cells": "HeLa", "result": ">10 µg/mL"}
{"smiles": "COc1ccc(-c2cc(N3CCCC3)no2)c(O)c1", "strain": "Serotype 2", "cells": "HeLa", "result": "4.2 µM"}
{"smiles": "CCn1c2c(c(=O)c3cc(C(C)C)ccc31)Cc1ccccc1-2", "strain": "33/1200", "cells": "HELA-OHIO", "result": "0.2 µg/mL"}
{"smiles": "CCS(=O)(=O)c1ccc(NCc2ccc(Cl)c(Cl)c2)nc1C#N", "strain": "TYPE 2", "cells": "HeLa", "result": "0.6 µg/mL"}
{"smiles": "CCc1nc(-c2cc(C)c(OCCCc3cc(COC)no3)c(C)c2)no1", "strain": "Serotype 67", "cells": "HeLa", "result": "0.126 µg/mL"}
{"smiles": "CCOc1cc(OC)ccc1-c1cc(N(CC)CC)no1", "strain": "Serotype 29 (group B)", "cells": "HeLa", "result": ">90 µM"}
{"smiles": "CCSc1nc2ccc(OCCC3CCN(c4nnc(C)s4)CC3)cc2o1", "strain": "Serotype 14", "cells": "MRC-5", "result": "0.056 µg/mL"}
{"smiles": "O=C(c1ccccc1)c1ccc(Oc2ccc(S(=O)(=O)Cc3ccccc3)cn2)cc1", "strain": "TYPE 64", "cells": "HeLa", "result": ">10 µg/mL"}
{"smiles": "CS(=O)(=O)c1ccc(NCc2ccc(Cl)c(Cl)c2)nc1", "strain": "TYPE 44", "cells": "HeLa", "result": "2.5 µg/mL"}
{"smiles": "CCN(CC)c1cc(-c2ccc(OC)cc2OC)on1", "strain": "Serotype 72 (group A)", "cells": "HeLa", "result": ">362 µM"}
{"smiles": "Cc1c(-c2ccccc2)n(-c2ccc(F)cc2)c2ccc(C(C)C)cc2c1=O", "strain": "41/56110", "cells": "HELA-OHIO", "result": "0.058 µg/mL"}
{"smiles": "Cc1ccc(CCCOc2cc(C)c(-c3noc(C(F)F)n3)c(C)c2)nn1", "strain": "serotypes 3 4 5 9 16 18 38 66 75 67", "cells": "HeLa", "result": "0.05 µg/mL"}
{"smiles": "CCOc1ccc(-c2onc(N(CC)CC)c2Cc2c(N(CC)CC)noc2-c2ccc(O)cc2O)c(O)c1", "strain": "Serotype 2", "cells": "HeLa", "result": ">17 µM"}

The last 3 rows once more:

smiles,strain,cells,result
Cc1c(-c2ccccc2)n(-c2ccc(F)cc2)c2ccc(C(C)C)cc2c1=O,41/56110,HELA-OHIO,0.058 µg/mL
Cc1ccc(CCCOc2cc(C)c(-c3noc(C(F)F)n3)c(C)c2)nn1,serotypes 3 4 5 9 16 18 38 66 75 67,HeLa,0.05 µg/mL
CCOc1ccc(-c2onc(N(CC)CC)c2Cc2c(N(CC)CC)noc2-c2ccc(O)cc2O)c(O)c1,Serotype 2,HeLa,>17 µM